Laboratory results from publication PMC10444775 (Scientific Reports, 2023).

B1: 7A9 VHH (VHH)
VHH: QVQLVESGGGLVQAGGSLRLSCSASGGTASRSAMGWFRQAPGKEREFVAGISRRNSGSTYVADSYEDSVKGRFTISRDNAKNTIYLQMNSLKPEDTAVYYCAAEPTLGWYVPRRSVEYEYWGQGTQVTVSS
B2: MERS spike protein aa 1-1337 on CHO K1 cells (natural protein)
chain: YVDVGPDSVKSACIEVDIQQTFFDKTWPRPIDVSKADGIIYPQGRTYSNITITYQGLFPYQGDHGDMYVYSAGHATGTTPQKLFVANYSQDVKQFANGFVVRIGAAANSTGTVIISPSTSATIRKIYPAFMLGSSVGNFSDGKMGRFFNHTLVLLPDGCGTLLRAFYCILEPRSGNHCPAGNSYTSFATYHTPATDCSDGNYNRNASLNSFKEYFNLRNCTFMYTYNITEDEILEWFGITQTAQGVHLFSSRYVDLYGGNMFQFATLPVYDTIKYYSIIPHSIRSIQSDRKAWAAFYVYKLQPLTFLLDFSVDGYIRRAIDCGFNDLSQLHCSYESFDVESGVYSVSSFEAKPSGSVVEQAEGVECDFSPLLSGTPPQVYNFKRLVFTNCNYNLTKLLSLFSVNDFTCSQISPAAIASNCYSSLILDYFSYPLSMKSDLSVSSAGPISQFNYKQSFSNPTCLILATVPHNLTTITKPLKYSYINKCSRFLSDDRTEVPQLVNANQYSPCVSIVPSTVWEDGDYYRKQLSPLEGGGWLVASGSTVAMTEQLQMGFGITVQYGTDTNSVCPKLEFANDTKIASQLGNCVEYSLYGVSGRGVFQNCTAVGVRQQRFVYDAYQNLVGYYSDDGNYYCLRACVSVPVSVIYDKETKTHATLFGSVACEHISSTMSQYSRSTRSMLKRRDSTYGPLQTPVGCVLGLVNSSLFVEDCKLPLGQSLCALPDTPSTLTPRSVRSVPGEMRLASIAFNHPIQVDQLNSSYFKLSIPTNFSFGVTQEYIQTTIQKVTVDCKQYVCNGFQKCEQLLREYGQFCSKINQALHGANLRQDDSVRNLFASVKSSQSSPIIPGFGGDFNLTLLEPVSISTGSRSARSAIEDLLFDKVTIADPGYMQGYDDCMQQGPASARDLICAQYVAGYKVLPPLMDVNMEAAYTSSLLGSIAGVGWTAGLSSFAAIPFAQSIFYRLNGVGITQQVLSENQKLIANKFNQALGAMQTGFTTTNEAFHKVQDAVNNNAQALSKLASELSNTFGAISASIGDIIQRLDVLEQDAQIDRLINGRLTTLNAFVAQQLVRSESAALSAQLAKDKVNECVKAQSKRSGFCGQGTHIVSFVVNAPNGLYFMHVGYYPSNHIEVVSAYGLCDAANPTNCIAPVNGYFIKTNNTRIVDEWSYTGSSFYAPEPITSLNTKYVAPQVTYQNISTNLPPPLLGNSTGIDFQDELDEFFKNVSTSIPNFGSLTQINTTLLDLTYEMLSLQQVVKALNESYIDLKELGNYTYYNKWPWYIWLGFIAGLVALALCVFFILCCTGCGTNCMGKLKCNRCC

Assays:
[1] = biological target: SARS-CoV prefusion-stabilized spike protein (SARS-CoV-PreS) (SARS-CoV (strain not named; reference …, UniProt P59594, K968P | V969P)
7A9 VHH-Fc = 7A9 VHH-Fc (llama); assay: flow cytometry on cells; conditions: one partner purified

Binder	binding result [1]	binding result (7A9 VHH-Fc)
B1	binds	–
B2	–	no binding
